Pooled drug test results. Numbers come from NIAID ChemDB, via PubChem.

Common to all: host cell toxicity; cell line: CEM; read-out: CC50

CCn is the concentration with n% toxicity to the cells. Conditions beyond the fields shown may differ between rows.

structure | result
O=C(O)c1ccccc1SSc1ccccc1C(=O)O | >100 µM
Cn1c(=O)c2c(nc3sc4c(n32)C(=O)c2c(O)ccc(O)c2C4=O)n(C)c1=O | 0.2 µM
CC(C)(C)[Si](C)(C)OC[C@H]1O[C@@H](n2cc(CCCCl)nn2)[C@H](O[Si](C)(C)C(C)(C)C)C12OS(=O)(=O)C=C2N | >0.66 µM
Cc1cn([C@H]2C[C@H](N=[N+]=[N-])[C@@H](COC(=O)[C@@]3(O)CCC4C5CCC6=CC(=O)C=CC6(C)C5C(O)CC43C)O2)c(=O)[nH]c1=O | >20 µM
Cc1cn([C@@H]2O[C@H](CO[Si](C)(C)C(C)(C)C)[C@@H](O)[C@H]2O[Si](C)(C)C(C)(C)C)c(=O)n(CC(=O)O)c1=O | 23 µM
CCCCCCCCCCCCOCC(COP(=O)([O-])OCC[N+](C)(C)C)OCCCCCCCCCC | 75.7 µM
CCC(=O)c1ccc(NC(=O)c2ccccc2SSc2ccccc2C(=O)Nc2ccc(C(=O)CC)cc2)cc1 | 105 µM
CCn1cnc2ncn([C@@H]3O[C@H](CO[Si](C)(C)C(C)(C)C)C4(OS(=O)(=O)C=C4N)[C@H]3O[Si](C)(C)C(C)(C)C)c2c1=O | 98 µg/mL
CCCc1cn([C@@H]2O[C@H](CO[Si](C)(C)C(C)(C)C)C3(OS(=O)(=O)C=C3N)[C@H]2O[Si](C)(C)C(C)(C)C)nn1 | >1.7 µM
Cc1cn([C@H]2C=C[C@@H](CO)O2)c(=O)[nH]c1=O | >30 µM
O=c1[nH]cnc2c1ncn2[C@H]1CC[C@@H](CO)O1 | 945 µM
CCOP(=O)(CO[C@H]1C[C@@H](n2cnc3c(N)nc(F)nc32)C(F)(F)C1)OCC | >100 µM
CC(C)(C)[Si](C)(C)OC[C@H]1O[C@@H](n2ccc(=O)n(CC(=O)O)c2=O)[C@H](O[Si](C)(C)C(C)(C)C)[C@@H]1O | 78 µM
Cc1cc(SC2=C(O)C[C@](CCc3ccc(N)cc3)(C(C)C)OC2=O)c(C(C)(C)C)cc1CO | 210 µM
Cc1cn([C@H]2C[C@H](N=[N+]=[N-])[C@@H](COP(=O)(O)OP(=O)(O)O)O2)c(=O)[nH]c1=O | >20 µM
Cc1cn([C@H]2C[C@H](N=[N+]=[N-])[C@@H](CO)O2)c(=O)[nH]c1=O | >0.003 µM
CC(C)(C)[Si](C)(C)OC[C@H]1O[C@@H](n2cnc3c(N)ncnc32)[C@H](O[Si](C)(C)C(C)(C)C)C12OS(=O)(=O)C=C2N | 5.5 µg/mL
CO[C@H]1N([C@H]2C=C[C@@H](CO)O2)C(=O)NC(=O)[C@]1(C)I | 66 µM
CCCCCCCCCCCC(=O)NCC(COP(=O)(O)OC[C@H]1O[C@@H](n2cc(C)c(=O)[nH]c2=O)C[C@@H]1N=[N+]=[N-])OCCCCCCCC | >100 µM
COc1cc(OC)c2c(O)c3c(c(-c4ccc5cc6c(c(O)c5c4O)C(=O)CC(C)(O)C6)c2c1)CC(C)OC3C | 15.6 µM
Cc1cc(SC2=C(O)CC(CCc3ccc(O)cc3)(C3CCCC3)OC2=O)c(C(C)(C)C)cc1OCCO | 78 µM
CNC(=O)c1cn([C@@H]2O[C@H](CO[Si](C)(C)C(C)(C)C)C3(OS(=O)(=O)C=C3N)[C@H]2O[Si](C)(C)C(C)(C)C)nn1 | >1.2 µM
Nc1cccc(C(=O)N[C@@H](Cc2ccccc2)[C@@H](O)C[C@H](Cc2ccccc2)NC(=O)c2ccccc2NC(=O)OCc2ccccn2)c1 | >0.25 µM
Nc1ccn([C@H]2CC[C@@H](CO)O2)c(=O)n1 | 3.5 µM
Cc1cn([C@H]2C[C@H](N=[N+]=[N-])[C@@H](COC(=O)[C@H]3C(C#N)CC4C5CCC6=CC(=O)C=CC6(C)C5C(O)CC43C)O2)c(=O)[nH]c1=O | >20 µM
O=C1c2c(O)cc(O)c(O)c2C(=O)c2c(O)cc(O)c(O)c21 | 13.5 µM
Nc1nc(NC2CC2)c2ncn(C3C=C[C@@H](CO)C3)c2n1 | 135 µM
Cc1cn([C@H]2C=C[C@@H](CO)O2)c(=O)[nH]c1=O | 143 µM
CC(C)(C)[Si](C)(C)OC[C@H]1O[C@@H](n2nncc2C(N)=O)[C@H](O[Si](C)(C)C(C)(C)C)[C@]12OS(=O)(=O)C=C2N | >0.14 µM
CCOC(=O)N[C@H](C(=O)N[C@@H](Cc1ccccc1)[C@@H](O)C[C@H](Cc1ccccc1)NC(=O)c1ccccc1NC(=O)OCc1ccccn1)C(C)CC | >0.05 µM
CCCC(C)(C)[Si](C)(C)OC[C@H]1O[C@@H](n2cc(C)c(=O)n(CC(=O)O)c2=O)[C@H](O[Si](C)(C)C(C)(C)CCC)[C@@H]1O | 21 µM
CC[C@H](C)[C@H](NC(=O)c1ccccc1SSc1ccccc1C(=O)N[C@H](C(=O)O)[C@@H](C)CC)C(=O)O | 140 µM
COC(=O)[C@H](C)NP(=O)(OC[C@@H]1O[C@H](n2ccc(N)nc2=O)CS1)Oc1ccccc1 | >100 µM
CCCCCCCCCC(=O)NCC(COP(=O)([O-])OCC[N+](C)(C)C)OCCCCCC | >100 µM
Cc1cn([C@H]2C=C[C@@H](CO)O2)c(=O)[nH]c1=O | >50 µM
Oc1ccc2c(c1)OC[C@]1(O)Cc3cc(O)c(O)cc3[C@H]21 | 12.1 µM
Cc1c(N)cccc1C(=O)N[C@@H](Cc1ccccc1)[C@@H](O)C[C@H](Cc1ccccc1)NC(=O)c1ccccc1NC(=O)OCc1ccccn1 | >0.06 µM
COC1(C)C(=O)NC(=O)N([C@H]2C=C[C@@H](CO)O2)[C@H]1O | >170 µM
Cc1cc(SC2=C(O)C[C@@](CCc3ccc(N)cc3)(C(C)C)OC2=O)c(C(C)(C)C)cc1CO | 210 µM
C[C@]1(CCP(=O)(O)O)CO[C@@H](n2cnc3c(N)ncnc32)C1 | 30.4 µM
O=C(Nc1ccccc1C(=O)N[C@@H](Cc1ccccc1)C[C@H](O)[C@H](Cc1ccccc1)NC(=O)OCc1cccnc1)OCc1ccccn1 | >0.35 µM
CC(C)CC(NC(=O)c1ccccc1SSc1ccccc1C(=O)NC(CC(C)C)C(=O)NC(C)C(=O)O)C(=O)NC(C)C(=O)O | 157 µM
Nc1nc2c(ncn2[C@H]2CC[C@@H](CO)C2)c(=O)o1 | >500 µg/mL
C[C@]1(/C=C/P(=O)(O)O)CO[C@@H](n2cnc3c(=O)[nH]c(N)nc32)C1 | >100 µM
O=C(NC(C(=O)O)c1ccccc1)c1ccccc1SSc1ccccc1C(=O)NC(C(=O)O)c1ccccc1 | >100 µM
Nc1ncnc2c1ncn2CCOCP(=O)(O)O | 69 µM
O=c1[nH]cnc2c1ncn2[C@H]1CC[C@@H](CO)O1 | >500 µg/mL
CCCCCCCCCCOC(CNC(=O)CCCCCCCCC)COP(=O)([O-])OCC[N+](C)(C)C | 80.5 µM
Nc1nc(=O)n([C@@H]2CS[C@H](CO)O2)cc1F | >10 µM
CCCCCCCCCCCCCC(=O)OP(=O)(O)OP(=O)(O)OC[C@H]1O[C@@H](n2cc(C)c(=O)[nH]c2=O)C[C@@H]1N=[N+]=[N-] | >50 µM
Cc1c(O)cccc1C(=O)N[C@@H](Cc1ccccc1)[C@@H](O)[C@@H](O)[C@H](Cc1ccccc1)NC(=O)c1ccccc1NC(=O)OCc1ccccn1 | >0.02 µM
CCO[C@H]1N([C@H]2C=C[C@@H](CO)O2)C(=O)NC(=O)[C@]1(C)Br | >14 µM
Cc1cn([C@@H]2O[C@H](CO[Si](C)(C)C(C)(C)C)[C@@H](O)[C@H]2O[Si](C)(C)C(C)(C)C)c(=O)n(CC#N)c1=O | 21 µM
Cc1cn([C@H]2C[C@H](N=[N+]=[N-])[C@@H](CO)O2)c(=O)[nH]c1=O | >500 µg/mL
C[C@]1(Br)C(=O)NC(=O)N([C@H]2C=C[C@@H](CO)O2)[C@@H]1N=[N+]=[N-] | 44.7 µM
Cc1cn([C@H]2C=C[C@@H](COP(=O)(O)OP(=O)(O)O)O2)c(=O)[nH]c1=O | >20 µM
O=C(Nc1ccccc1C(=O)N[C@@H](Cc1ccccc1)[C@H](O)[C@H](O)[C@H](Cc1ccccc1)NC(=O)c1ccccc1NC(=O)OCc1ccccn1)OCc1ccccn1 | >10 µM
N#Cc1cc2c(cc1C#N)/C(=N/c1cccc(N)n1)N=C2Nc1cccc(N)n1 | 4 µM
COC(=O)[C@H](C)NP(=O)(OC[C@@H]1CC[C@H](n2ccc(N)nc2=O)O1)Oc1ccccc1 | 114 µM
Nc1nc2c(ncn2[C@H]2C[C@H](O)[C@@H](CO)O2)c(=O)o1 | >500 µg/mL
CC(C)(C)[Si](C)(C)OC[C@H]1O[C@@H](n2cnc3[nH]c(=O)[nH]c(=O)c32)[C@H](O[Si](C)(C)C(C)(C)C)C12OS(=O)(=O)C=C2N | 9.1 µg/mL
CC(C)(C)OC(=O)N[C@@H](Cc1ccccc1)[C@@H](O)[C@@H](O)[C@H](Cc1ccccc1)NC(=O)c1ccccc1NC(=O)OCc1ccccn1 | >0.4 µM
Cc1cn([C@H]2C[C@H](N=[N+]=[N-])[C@@H](CO)O2)c(=O)[nH]c1=O | 8 µM
CCOC(=O)c1nnn([C@@H]2O[C@H](CO[Si](C)(C)C(C)(C)C)C3(OS(=O)(=O)C=C3N)[C@H]2O[Si](C)(C)C(C)(C)C)c1C(=O)OCC | >1.6 µM
NCC(=O)Nc1ccc(Cl)cc1C(=O)c1ccc[nH]1 | 3 µg/mL
Cc1cn([C@H]2C[C@H](N=[N+]=[N-])[C@@H](CO)O2)c(=O)[nH]c1=O | 11.6 µM
Nc1nc2c(ncn2C2C=C[C@@H](CO)C2)c(=O)[nH]1 | 139 µM
Cc1cn([C@@H]2O[C@H](CO[Si](C)(C)C(C)(C)C)[C@@H](O)[C@H]2O[Si](C)(C)C(C)(C)C)c(=O)n(CCO)c1=O | 75 µM
CC(C)[C@H](NC(=O)N(C)Cc1ccccn1)C(=O)N[C@@H](Cc1ccccc1)[C@H](O)[C@H](O)[C@H](Cc1ccccc1)NC(=O)[C@@H](NC(=O)N(C)Cc1ccccn1)C(C)C | >100 µM
Cc1cc(SC2=C(O)C[C@@](CCc3ccc(N)cc3)(C(C)C)OC2=O)c(C(C)(C)C)cc1CO | 210 µM

A second listing of 7 rows from above:

structure	result
CCO[C@H]1N([C@H]2C=C[C@@H](CO)O2)C(=O)NC(=O)[C@]1(C)Br	>14 µM
O=C(O)c1ccccc1SSc1ccccc1C(=O)O	>100 µM
Cc1cn([C@H]2C[C@H](N=[N+]=[N-])[C@@H](COC(=O)[C@H]3C(C#N)CC4C5CCC6=CC(=O)C=CC6(C)C5C(O)CC43C)O2)c(=O)[nH]c1=O	>20 µM
CC(C)CC(NC(=O)c1ccccc1SSc1ccccc1C(=O)NC(CC(C)C)C(=O)NC(C)C(=O)O)C(=O)NC(C)C(=O)O	157 µM
O=C(Nc1ccccc1C(=O)N[C@@H](Cc1ccccc1)[C@H](O)[C@H](O)[C@H](Cc1ccccc1)NC(=O)c1ccccc1NC(=O)OCc1ccccn1)OCc1ccccn1	>10 µM
Cc1cn([C@H]2C[C@H](N=[N+]=[N-])[C@@H](CO)O2)c(=O)[nH]c1=O	8 µM
Nc1nc2c(ncn2[C@H]2C[C@H](O)[C@@H](CO)O2)c(=O)o1	>500 µg/mL